The supplement of paper PMC9931576
Human monoclonal antibodies against the spike receptor-binding domain (heavy:light variable regions). IC50 against pseudoviruses bearing the spike of naturally observed variants; lower = stronger; >10 µg/ml means not reached at the top dose. No active / inactive call. The stated detection limit is 0.0005 µg/ml; values near or below 0.001 µg/ml lie at the floor of the assay.

B1: BD55-5936 (protein)
chain 1: EVQLVESGGGLVQPGGSLRLSCAASGFIFSSYNMNWVRQAPGKGLEWVSYISSGSDTIYDADSVKGRFTISRDNAKNSLYLQMNSLRDEDTAVYYCARHYGAKSYYYYGMDVWGQGTTVTVSS
chain 2: DIQMTQSPSSLSASVGDRVTITCRASQTIYNYLNWYQQRPGKAPKLVIYAASSLQSGVPPRFSGSGSGTDFTLTISSLQPEDFATFYCQQSYSTPPTFGQGTKLEIK
B2: BD55-5938 (protein)
chain 1: QLQLQESGPGLVKPSETLSLTCTVSGGSISSSSYYWGWIRQPPGKGLEWIGIIYYSGSTYYNPSLKSRVTISIDTSKNHFSLKLSSVTAADTAVYYCARDLILYGEGAFDYWGQGTLVTVSS
chain 2: QAGLTQPPSVSKGLRQTATLTCTGNSNNVGNQGAAWLQQHQGHPPKLLSYRNNNRPSGISERLSASRSGNTASLTITGLQPEDEADYYCSAWDSSLSAWVFGGGTKLTVL
B3: BD55-5939 (protein)
chain 1: QMQLVQSGHEVKKSGASVKVSCKASGFSFTSSAVQWVRQARGQRLEWIGWIVVGSGSTYYAQKFQERLTITRDMSTSTVYVQLNSLRDEDTAVYYCSRGHLGYYYHGMDVWGQGTTVTVSS
chain 2: DIQMTQSPSSLSASVGDRVTITCQASQDISNYLNWFQQKPGKAPKLLIYDASNLEAGVPSRFSGSGSGTDFTFTISGLQPEDFATYFCQQYDNLPRTFGQGTKVEI
B4: BD55-5942 (protein)
chain 1: EMQLVQSGGGLVQPGGSLRLSCAAPEFTFSSYWMSWVRQAPGRGLEWVANINQDGSEKYYVDSVKGRFTIFRDNAKNSLYLQMNSLGAEDTAVYYCARRALDIVAPIAGDYYFDSWGQGTLVTVSS
chain 2: SYELTQPPSVSVSPGQTARITCSGDAFPRQFGYWYQQKPGQAPVLVIYKDSERPSGIPERFSGSSSGKRVTLTISGVQAEDEADYYCQSADSSGFPGVFGGGTKLTVL
B5: BD55-5950 (protein)
chain 1: EVQLVESGGGLIQPGGSLRLSCVASGVTVSRNYMSWVRQAPGKGLEWVSVIYSGGSTYYADSVKGRFTISRDNSKNTLYLQMNSLRAEDTAVYYCARDLGDDAFDIWGQGTMVTVSS
chain 2: DIQLTQSPSFLSASVGDRVTITCRASQGISSYLAWYQQKPGKAPKLLIYAASTLQSGVPSRFSGSGSGTEFTLTISSLQPEDFATYYCQQLNSYPRSGTFGQGTKVEIK
B6: BD55-5952 (protein)
chain 1: QVQLVQSGAEVKKPGASVKVSCKASGYTFTNYDINWVRQATGQGPEWMGWMNPNSGDTGYAQKFQGRVTMTRDTSIRTAYMELSSLTSEDTAVYYCAISFDSRGYYYYYAMDVWGQGTTVTVSS
chain 2: DIQMTQSPSSLPASVGDRVAITCRASQSISSYLNWYQQKPGKAPKLLIYDASTLQTGVPSRISGSGSGTDFTLTISSLQPEDFATYYCQQSYSTPPTFGQGTKVEFK
B7: BD55-5953 (protein)
chain 1: QVTLKESGPVLVKPTETLTLTCTVSGFSLVNSRMGVSWIRQPPGKALEWLAHILSNDEKSYSTSLKNRLTISKDTSKSQVVLTMTNVDPADTATYFCARIPAHSSIYYTLEYYFDYWGRGTLVTVSS
chain 2: YELTQPPSVSVSPGQTARIPCSGDALPRLYTYWYQLRPGQAPLLVIYNDSERPSGIPERFSGSTSGTTVTLTISGVQADDEADYYCQSADSSGININFGGGTKLTVL
B8: BD55-1136 (protein)
chain 1: QVQLVQSGAEMKKPGASVKVSCKASGYTFTTYYIHWVRQAPGQGLEWMGVINPSGGGTSLPQKFQGRVTMTRDTSTSTVDMDLSNLRSEDTAVYYCARGSSGLDIVLRWYFDLWGRGTLVTVSS
chain 2: QSVLTQPPSVSGAPGQRVTISCTGSSSNFGAGYDVHWYQQLPGTAPKLLIYSNTNRPSGVPDRFSGSRSGTSASLAITGLQAEDEAHYYCQSFDATLSGSSVVFGGGTKLTVL
B9: BD55-5966 (protein)
chain 1: EVQLVESGGGLVHPGRSLRLSCTASGFTFGDHAMSWVRQAPGKGLEWVGFIRSKAHGGTTEYAASVKGRFTISRDDSKSIAYLQMNSLKTEDTAVYYCTKTEIGGMWAIGYGMDVWGQGTTVTVSS
chain 2: QSVLTQPPSASGTPGQRVTISCSGSSSNIGSNYVYWYQQFPGAAPKLLIYRNNLRPSGVPDRFSGSKSGTSASLAISGLRSEDEADYYCAAWDDSLSGLFGGGTKLTVL
B10: BD55-5967 (protein)
chain 1: QVELQESGPGLLKPSETLSLTCTVSGDPITSYYWSWIRQPPGKGLEYIGYIYFSGNTNYNPSLKSRVTLSIDTSKNQFSLKLSSVTAADTAIYYCARSPLTGTTRLLDYWGQGTRVTVSS
chain 2: IVMTQSPATLSVSPGETATLSCRASQSVGSNLAWYQQKAGQAPRLLIYGASTRATGIPARFSGSGSGTEFTLIISSLQSADFAVYHCQQYNTWPWTFGPGTKVEIK
B11: BD55-5997 (protein)
chain 1: QLQLQQWGAGLLRPSETLSLTCGVYGGSFSGYYWSWIRQPPGQGLEWIGEIQHSGDTNYNLSLKSRVTISIDTSKNQLTLKLTSVTAADTAVYYCAREAKATGVTLRRGAFDVWGQGTMVTVSS
chain 2: DIVMTQSPDSLAVSLGERATINCKSSQSVLYFSSDKNYLAWYQHRPGQPPKLLIYWASTRESGVPDRFSGSGSGTDFTLTISNLQAEDVAVYYCQQYYSTPLTFGGGTKVEIK
B12: BD55-6009 (protein)
chain 1: QVQLVQSGAEVKKPGASVKISCKASGYPFTTYYIHWVRQAPGQGLEWMGIINAGGGRAFYAQKFQGRVSMTRDTSTSTVYMELSSLTSEDTAVYFCARDGPIGVVGIDYFDYWGQGTLVTASS
chain 2: DIQMTQSPSSLSASVGDKVTISCRASQTISNYLNWYQQKPGKAPKLLIYAASSLQSGVPSRFSGSGSGTDFTLTINSLQPEDFATYYCQQSYNTPPWTFGQGTKVEIK

Biological target: SARS-CoV-2 Omicron BA.1 spike pseudovirus
Assay: pseudovirus neutralization IC50; higher = weaker neutralization
Experimental: (§1)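 Single-round VSV luciferase pseudovirus mixed with antibody dilutions for 1 h and put on Huh-7 cells for about a day; IC50 from the dose curve.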

Binder | pseudovirus neutralization IC50 [µg/mL]
B1 | > 10
B2 | > 10
B3 | > 10
B4 | > 10
B5 | > 10
B6 | > 10
B7 | > 10
B8 | > 10
B9 | > 10
B10 | 1.99
B11 | > 10
B12 | > 10

Biological target: SARS-CoV-2 Omicron BA.2 spike pseudovirus
Assay: as above
Experimental: as §1

Binder | pseudovirus neutralization IC50 [µg/mL]
B1 | > 10
B2 | > 10
B3 | > 10
B4 | > 10
B5 | > 10
B6 | > 10
B7 | > 10
B8 | > 10
B9 | > 10
B10 | 1.58
B11 | > 10
B12 | > 10

Biological target: SARS-CoV-2 Omicron BA.2.75 spike pseudovirus
Assay: as above
Experimental: as §1

Binder | pseudovirus neutralization IC50 [µg/mL]
B1 | > 10
B2 | > 10
B3 | > 10
B4 | > 10
B5 | > 10
B6 | > 10
B7 | > 10
B8 | > 10
B9 | > 10
B10 | 0.53
B11 | > 10
B12 | > 10

Biological target: SARS-CoV-2 Omicron BA.5 spike pseudovirus
Assay: as above
Experimental: as §1

Binder | pseudovirus neutralization IC50 [µg/mL]
B1 | > 10
B2 | > 10
B3 | > 10
B4 | > 10
B5 | > 10
B6 | > 10
B7 | > 10
B8 | > 10
B9 | > 10
B10 | > 10
B11 | > 10
B12 | > 10

Biological target: SARS-CoV-2 Omicron BQ.1.1 spike pseudovirus
Assay: as above
Experimental: as §1

Binder | pseudovirus neutralization IC50 [µg/mL]
B1 | > 10
B2 | > 10
B3 | > 10
B4 | > 10
B5 | > 10
B6 | > 10
B7 | > 10
B8 | > 10
B9 | > 10
B10 | > 10
B11 | > 10
B12 | > 10

Biological target: SARS-CoV-2 Omicron XBB spike pseudovirus
Assay: as above
Experimental: as §1

Binder | pseudovirus neutralization IC50 [µg/mL]
B1 | > 10
B2 | > 10
B3 | > 10
B4 | > 10
B5 | > 10
B6 | > 10
B7 | > 10
B8 | > 10
B9 | > 10
B10 | > 10
B11 | > 10
B12 | > 10

Biological target: SARS-CoV-2 early D614G spike pseudovirus
Assay: as above
Experimental: as §1

Binder | pseudovirus neutralization IC50 [µg/mL]
B1 | > 10
B2 | > 10
B3 | > 10
B4 | > 10
B5 | 0.0222
B6 | > 10
B7 | > 10
B8 | 0.00195
B9 | 0.00517
B10 | 0.00323
B11 | > 10
B12 | > 10
